Values from PubChem BioAssay AID1259414 (Drosophila RNAi Screening Center, 2018).
Aim: 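Genome-wide screen for host control of endosymbiont load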 (primary screen). Cells: Drosophila JW18 cells infected with Wolbachia. Reagent: long dsRNA against Drosophila genes, 0.25 µg dsRNA per well of a 384-well plate. Timing: 5 days. Treatment: cells persistently infected with Wolbachia before knock-down; no added drug. Measurement: 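Imaged fluorescence in situ signal for Wolbachia 23S rRNA per DAPI-counted host cell, given as a robust z-score within each plate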. Reading the numbers: Wolbachia per cell robust z: higher = more Wolbachia per host cell than the plate typical. Hit rule: 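Active if absolute robust z reaches 1.5 in two or more of three replicates, leaving out multi- or no-target dsRNAs, genes unexpressed in JW18 and A1 wells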.
The screen tested about 24,000 reagents; below is a random part of those with a known target gene and a result. Over the whole deposit, about 1,210 (5%) are marked active. 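Inactive calls also include excluded dsRNAs with several or no targets, genes unexpressed in JW18, and well A1, regardless of score.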 Names joined by + are all predicted targets of the reagent.

gene	DRSC id	Wolbachia per cell robust z, rep 1	Wolbachia per cell robust z, rep 2	Wolbachia per cell robust z, rep 3	Call
CG3226	DRSC18296	-0.492	-0.0534	-0.255	inactive
peg	DRSC15216	-1.16	-0.534	-7.13	inactive
peg	DRSC26737	-3.04	-3.16	-1.41	active
CG33981 + fab1	DRSC07412	-0.709	-1.52	-1.85	inactive
CG31523	DRSC12009	-0.591	-0.104	-0.422	inactive
CG31523	DRSC12337	0.0157	0.147	-0.0304	inactive
CG31523	DRSC27253	1.23	0.339	0.185	inactive
CG14621	DRSC20635	0.555	0.411	0.708	inactive
CG14621	DRSC27094	0.0372	0.24	-0.651	inactive
Sfp60F	DRSC40629	-0.416	0.0611	0.169	inactive
wntD	DRSC16423	0.58	0.543	1.84	inactive
wntD	DRSC28538	1.2	-0.774	0.974	inactive
CG6310	DRSC10619	0.443	-5.34	-0.579	inactive
CG9016	DRSC03127	0.126	0.37	0.206	inactive
CG9016	DRSC24205	0.428	1.27	-0.0872	inactive
Mthfs	DRSC41340	0.336	-1.76	-0.297	inactive
CG1958	DRSC18196	-6.59	-0.502	-1.4	inactive
CG1958	DRSC25599	-2.51	-0.708	-1.27	inactive
sbr	DRSC19770	0.562	-2.49	-0.0165	inactive
sbr	DRSC20368	-0.0087	0.472	0.616	inactive
sbr	DRSC29803	0.369	-1.82	0.335	inactive

An excerpt from above, showing only “Wolbachia per cell robust z, rep 1”.
Mthfs [DRSC41340]: 0.336
CG1958 [DRSC18196]: -6.59
CG1958 [DRSC25599]: -2.51
sbr [DRSC19770]: 0.562

The listing continues:
gene	DRSC id	Wolbachia per cell robust z, rep 1	Wolbachia per cell robust z, rep 2	Wolbachia per cell robust z, rep 3	Call
pdm3	DRSC06076	-0.562	-0.531	-0.246	inactive
pdm3	DRSC23181	0.433	0.696	1.04	inactive
pdm3	DRSC27184	0.978	0.425	0.4	inactive
pdm3	DRSC29989	0.863	-0.147	0.932	inactive
CG1607	DRSC15130	-0.0224	0.303	0.36	inactive
CG1607	DRSC27010	0.815	-0.162	-0.896	inactive
Atg101	DRSC20020	0.33	-0.0752	0.417	inactive
CLIP-190	DRSC03283	-0.0919	-0.481	-0.392	inactive
CLIP-190	DRSC30075	0.605	-0.802	0.709	inactive
CG43861	DRSC02170	-0.656	-0.47	-0.45	inactive
CG43861	DRSC02308	-0.518	-0.0731	-0.632	inactive
CG34263	DRSC38858	1.11	0.716	0.279	inactive
CG7025	DRSC03002	-0.0141	0.163	-1.92	inactive
Oamb	DRSC13433	0.2	1.36	-1.08	inactive
Oamb	DRSC15120	0.423	-2.05	-0.252	inactive
Oamb	DRSC16763	-5.7	0.087	-0.0728	inactive
hook	DRSC03545	1	-0.896	-1.01	inactive
CG30033 + dare	DRSC22908	-0.665	0.523	1.28	inactive
CG10979	DRSC12153	-0.469	-1.64	-1.92	active
CG32073	DRSC09087	0.12	-0.681	0.81	inactive
CG32073	DRSC09894	-1.17	-0.403	-0.629	inactive
Marf	DRSC18329	-1.01	-2.64	-0.0502	inactive
Marf	DRSC28101	-1.04	0.28	0.65	inactive
CG11893	DRSC14429	0.68	-1.83	0.51	inactive
CG11893	DRSC29725	-2.29	-0.392	-1.67	active
